PubChem BioAssay AID1259414, Drosophila RNAi Screening Center | 2018

Purpose: 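Host factors increasing or decreasing Wolbachia levels in cultured fly cells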 (primary screen)
Cells: Drosophila JW18 cells infected with Wolbachia
Knock-down reagent: long dsRNA against Drosophila genes, 0.25 µg dsRNA per well of a 384-well plate
Timing: 5 days
Conditions: cells persistently infected with Wolbachia before knock-down; no added drug
Measurement: 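Automated imaging of bacterial rRNA staining divided by host cell count, reported as plate-normalised robust z-score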
Reading the numbers: Wolbachia per cell robust z: higher = more Wolbachia per host cell than the plate typical
Active means: 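Active if absolute robust z reaches 1.5 in two or more of three replicates, leaving out multi- or no-target dsRNAs, genes unexpressed in JW18 and A1 wells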
The deposit covers about 24,000 reagents; this is an unselected part of those that have a named target and a result. Of all reagents, about 1,210 (5%) were called active. 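Inactive calls also include excluded dsRNAs with several or no targets, genes unexpressed in JW18, and well A1, regardless of score.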 Entries without a mark were called inactive. Names joined by + are all predicted targets of the reagent. No sequences are given here.

gene | dsRNA | Wolbachia per cell robust z, rep 1 | Wolbachia per cell robust z, rep 2 | Wolbachia per cell robust z, rep 3
CG12362 | DRSC09884 | -0.536 | -2.07 | 0.965
CG13579 | DRSC04215 | 0.124 | -1.5 | 0.754
CG13579 | DRSC25603 | -0.291 | -0.619 | -0.71
asRNA:CR43430 + hts | DRSC07629 | -3.12 | 0.655 | 0.956
dpr6 | DRSC09005 | 0.681 | 1.26 | 1.51
dpr6 | DRSC10162 | -2.62 | -0.96 | 0.375
dpr6 | DRSC10163 | -0.675 | 0.733 | 0.909
CG4887 | DRSC00670 | 0.887 | -4.63 | 0.774
CG4887 | DRSC21563 | 0.139 | 0.25 | 0.797
CG4887 | DRSC25723 | 0.115 | -0.121 | 0.00121
CG12818 | DRSC14556 | 0.669 | 0.498 | 0.213
CG9215 | DRSC20171 | -0.768 | 0.606 | 0.852
CG34276 | DRSC15811 | 0.709 | 0.555 | -0.428
APC10 | DRSC06071 | -2.67 | 1.09 | 0.607
Pus1 | DRSC15548 | -1.62 (active) | -0.282 | -4.6
Pus1 | DRSC27461 | 0.0329 | 0.394 | 0.769
Ssadh | DRSC15621 | 1.18 | 1.78 | -4.03
Ssadh | DRSC27782 | -1.67 (active) | -0.462 | -1.52
Mst84Dd | DRSC12600 | 0.4 | 0.564 | -0.867
Mst84Dd | DRSC25596 | -5.36 | -13.4 | -1.08
CG8925 | DRSC16455 | 1.22 | 0.956 | 0.321
CG8925 | DRSC16456 | -0.641 | -0.787 | -0.268
CG8925 | DRSC16457 | 0.069 | -0.763 | -0.254
wb | DRSC01375 | 1.44 | -0.0631 | 0.194
wb | DRSC03634 | -0.412 | -0.556 | -5.87
wb | DRSC23003 | -0.425 | 1.03 | 0.252
wb | DRSC39164 | -2.72 | 0.00317 | -0.183
c(2)M | DRSC01922 | 0.0917 | 1.17 | 0.0515
elgi | DRSC10242 | 0.512 | 1.25 | 0.00185
elgi | DRSC29665 | -0.0905 | -0.596 | 0.455
Antp | DRSC23104 | 0.753 | -0.209 | 0.151
Antp | DRSC26749 | 0.673 | -0.254 | 0.664
Slc45-1 | DRSC10427 | 0.744 | 1.35 | 0.683
CG15651 | DRSC04242 | 0.637 | 0.774 | 0.152
HDAC4 | DRSC19780 | -0.291 | 0.768 | 0.167
HDAC4 | DRSC25237 | -0.475 | 0.86 | 0.441
HDAC4 | DRSC40858 | 0.389 | -0.104 | 0.715
CG11980 | DRSC14456 | -4.07 | 0.149 | 0.636
CG17681 | DRSC02632 | -0.581 | 0.68 | -0.0889
GstE6 | DRSC06676 | -4.18 | 0.6 | 0.643
CG42711 | DRSC41386 | -0.662 | -1.09 | -0.274
CG31549 | DRSC21688 | 1.02 | 0.756 | -0.961
CG14689 | DRSC14912 | -0.664 | -2.41 | -1.09
CG14689 | DRSC28117 | 0.4 | -2.73 | -1.19
Dsk | DRSC12347 | 0.136 | -0.518 | -0.312
rin | DRSC22997 | 0.412 | 0.117 | -0.69

Records above marked active:
gene | dsRNA | Wolbachia per cell robust z, rep 1 | Wolbachia per cell robust z, rep 2 | Wolbachia per cell robust z, rep 3
Pus1 | DRSC15548 | -1.62 (active) | -0.282 | -4.6
Ssadh | DRSC27782 | -1.67 (active) | -0.462 | -1.52
